Measurements reported in PubChem BioAssay AID504761 (Drosophila RNAi Screening Center, 2011)
The screen tested about 22,000 reagents; this is a random part of those with a known target gene and a result. Of all reagents, 116 (0.52%) got an active call. 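Calls depend on retest data that are not deposited; infection was ranked per plate without normalising between plates; the unit of the infection score is not given.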 Raw values are not corrected between plates. A number with no mark means an inactive call. Not stated in the record: the amount of reagent, the time to read-out.

Screen: 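Fly genes whose silencing reduces dengue virus type 2 infection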 (primary screen)
System: D.Mel-2 cells from Drosophila
Reagent: long dsRNA against Drosophila genes
Treatment: infection with dengue virus type 2; dose and infection time not stated
Read-out: 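Per well on two replicate plates, imaging gave the percent of cells positive for viral envelope protein, ranked by infection, and a nuclear count of cells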
Reading the numbers: infection score: higher = more virus-infected cells; cell count: higher = more cells in the well
Rule for the call: 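Very low infection ranking in both replicate wells (chance probability at most 0.065), then a retest showing infection dropped 1.5-fold or more at p below 0.05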
Meaning of the calls: active = confirmed: knock-down lowers infection; inactive = not picked or not confirmed

| Target gene | PubChem SID | infection score, replicate 1 | infection score, replicate 2 | cell count, replicate 1 | cell count, replicate 2 |
| --- | --- | --- | --- | --- | --- |
| Pkcdelta (Protein kinase C delta) | SID104199148 | 1.63 | 3.31 | 6866 | 6863 |
| Pkcdelta (Protein kinase C delta) | SID104199191 | 1.22 | 2.6 | 6394 | 6705 |
| Pkcdelta (Protein kinase C delta) | SID104205583 | 8.69 | 4.06 | 6401 | 6012 |
| CG3611 | SID104184187 | 4.03 | 11.1 | 6793 | 3956 |
| Lasp | SID104190171 | 2 | 1.92 | 5887 | 6310 |
| Lasp | SID104202791 | 5.25 | 3.91 | 5883 | 6141 |
| Mcm3 (Minichromosome maintenance 3) | SID104198471 | 4.13 | 2.15 | 5738 | 6147 |
| Mcm3 (Minichromosome maintenance 3) | SID104204273 | 17.9 | 13.8 | 6175 | 5558 |
| Mal-A4 (Maltase A4) | SID104187028 | 2.59 | 12 | 6475 | 6896 |
| Mal-A4 (Maltase A4) | SID104207090 | 0.72 | 4.31 | 552 | 1321 |
| dcma (decima) | SID104180038 | 1.71 | 6.03 | 6767 | 6430 |
| dcma (decima) | SID104180130 | 10.7 | 5.45 | 747 | 6606 |
| Ero1L (Endoplasmic reticulum oxidoreductin-1-like) | SID104188452 | 11.7 | 8.68 | 5859 | 5701 |
| Zip89B (Zinc/iron regulated transporter-related protein 89B) | SID104195920 | 6.84 | 18.1 | 6254 | 5720 |
| Zip89B (Zinc/iron regulated transporter-related protein 89B) | SID104208235 | 4.86 | 9.76 | 6191 | 5543 |
| TwdlY (TweedleY) | SID104198945 | 5.8 | 5.73 | 5881 | 6210 |
| CG1513 | SID104184986 | 0.16 | 1.43 | 5802 | 5330 |
| CG1513 | SID104186345 | 5.09 | 8.04 | 6284 | 5063 |
| CG1513 | SID104186346 | 4.4 | 6.96 | 6480 | 6510 |
| Osi3 (Osiris 3) | SID104191967 | 5.25 | 5.4 | 6321 | 6791 |
| retinin | SID104189732 | 3.49 | 5.3 | 5907 | 6003 |
| retinin | SID104204278 | 4.23 | 1.63 | 5459 | 6000 |

Entries above whose gene name starts with R or r:
| Target gene | PubChem SID | infection score, replicate 1 | infection score, replicate 2 | cell count, replicate 1 | cell count, replicate 2 |
| --- | --- | --- | --- | --- | --- |
| retinin | SID104189732 | 3.49 | 5.3 | 5907 | 6003 |
| retinin | SID104204278 | 4.23 | 1.63 | 5459 | 6000 |

Continued:
| Target gene | PubChem SID | infection score, replicate 1 | infection score, replicate 2 | cell count, replicate 1 | cell count, replicate 2 |
| --- | --- | --- | --- | --- | --- |
| Dlip1 (Dorsal interacting protein 1) | SID104198252 | 2.87 | 9.24 | 5898 | 6345 |
| Polr2H (RNA polymerase II, I and III subunit H) | SID104191434 | 17.5 | 43.8 | 3718 | 3443 |
| CG17803 | SID104195067 | 7.96 | 7.72 | 6519 | 6685 |
| CG17803 | SID104202170 | 0.66 | 8.15 | 6236 | 6230 |
| CG11180 | SID104185847 | 8.73 | 16.1 | 5705 | 5350 |
| CG11180 | SID104206697 | 14.2 | 16.6 | 6146 | 5576 |
| CG33458 | SID104202250 | 2.25 | 4.42 | 5899 | 6216 |
| CG9837 | SID104196365 | 5 | 3.94 | 6405 | 6649 |
| CG9837 | SID104206510 | 19.4 | 7.4 | 2469 | 6928 |
| fws (four way stop) | SID104182761 | 14.8 | 12.5 | 6349 | 6274 |
| fws (four way stop) | SID104208222 | – | – | 366 | 383 |
| alpha-Man-IIb (alpha-Mannosidase class II b) | SID104196690 | 16.6 | 16.6 | 5623 | 5842 |
| alpha-Man-IIb (alpha-Mannosidase class II b) | SID104203065 | 2.41 | 6.33 | 6152 | 5606 |
| lncRNA:sphinx (long non-coding RNA:sphinx) | SID104196991 | 5.29 | 1.6 | 5884 | 5927 |
| CG13300 | SID104189766 | 1.46 | 3.79 | 6033 | 5178 |
| CG13300 | SID104203627 | 1.8 | 2.71 | 6619 | 6446 |
| Chsy (Chondroitin sulfate synthase) | SID104199967 | 8.9 | 8.37 | 5761 | 5829 |
| Chsy (Chondroitin sulfate synthase) | SID104199968 | 3.01 | 1.97 | 6051 | 6254 |
| TTLL3A (Tubulin tyrosine ligase-like 3A) | SID104181935 | 3.94 | 1.43 | 6217 | 6760 |
| TTLL3A (Tubulin tyrosine ligase-like 3A) | SID104207006 | 14.4 | 24.4 | 2211 | 3637 |
| Srp9 (Signal recognition particle 9) | SID104190765 | 1.21 | 3.67 | 6431 | 6602 |
| CG10140 | SID104189496 | 0.71 | 0.54 | 6015 | 6909 |
| CG10140 | SID104204764 | 6.79 | 6.24 | 6317 | 5736 |
| CG10839 | SID104181757 | 10.9 | 2.65 | 5644 | 6780 |
| CG7631 | SID104181665 | 4.71 | 1.49 | 6499 | 6364 |
| CR18217 (pseudo) | SID104201230 | 0.77 | 11.6 | 5462 | 5239 |
| Edem2 (ER degradation enhancer, mannosidase alpha-like 2) | SID104182669 | 5.02 | 2.38 | 6658 | 6809 |
| Edem2 (ER degradation enhancer, mannosidase alpha-like 2) | SID104205442 | 2.25 | 6.08 | 6488 | 6630 |
| ci (cubitus interruptus) | SID104196964 | – | 5.94 | 368 | 1600 |
| CG31913 | SID104180684 | 0.96 | – | 5734 | – |
| CG31913 | SID104206076 | 7.4 | 7.5 | 6770 | 6602 |
| MED26 (Mediator complex subunit 26) | SID104196918 | 5.93 | 1.33 | 6218 | 6186 |
| MED26 (Mediator complex subunit 26) | SID104196939 | 9.99 | 3.23 | 891 | 5484 |
| MED26 (Mediator complex subunit 26) | SID104196940 | 1.96 | 21.4 | 6218 | 6634 |
| thoc7 | SID104188304 | 2.32 | 8.73 | 6470 | 6370 |
| thoc7 | SID104208014 | 14.3 | 18.1 | 4509 | 2546 |
